According to patent publication US5093475A (priority 1989, dated 1992):

System: 791 mAb
Test: Efficiency of conjugation with RTA (percent substitution by SDS-PAGE and densitometry)
Conditions: 4.0- or 6.3-fold molar excess of RTA

| Compound | % Subst. (RTA/mAb ratio of product divided by TNB/mAb ratio of modified antibody) [%] |
| --- | --- |
| CC1CCC(=N)S1.Cl (centres unmarked) [methyl-2IT, 5-Methyl-2-iminothiolane hydrochloride] | 82 |
| Cl.N=C1CCC(c2ccccc2)S1 (centres unmarked) [phenyl-2IT, 5-Phenyl-2-iminothiolane hydrochloride] | 47 |
